Results of unrelated studies side by side (data: NIAID ChemDB).

All rows: growth or infection tests; agent: HIV-1; read-out: EC50

An empty or dashed field is not shown. Two numbers with a dash give a range or band. ECn is the concentration giving n% inhibition of infection, replication or growth. Rows are shuffled and stem from different studies.

structure,method,cells,strain,mutations,value
CC(C)C1=C2[C@H]3CC[C@@H]4[C@@]5(C)CC[C@H](OC(=O)[C@H]6C[C@@H](C(=O)O)C6(C)C)C(C)(C)[C@@H]5CC[C@@]4(C)[C@]3(C)CC[C@@]2(CC(=O)NCCc2ccc(Cl)cc2)CC1=O,p24 / ELISA,MT-2,92HT599,-,<1 µM
Cc1cc(C#N)cc(C(=O)c2cc(Cl)ccc2OCC(=O)Nc2ccc(S(N)(=O)=O)cc2C)c1,β-galactosidase,HeLa + HELA CD4+,HXB2 (RT-K103N G190A) Recombinant,RT-K103N G190A,<0.01 µM
CC(C)CN(C[C@@H](O)[C@H](Cc1ccccc1)NC(=O)O[C@H]1CCOC1)S(=O)(=O)c1ccc(N)cc1,reporter gene,MT-4,T21217,L10F I47V L90M,3650 nM
CC(C)C1=C2[C@H]3CC[C@@H]4[C@@]5(C)CC[C@H](OC(=O)[C@H]6C[C@@H](C(=O)O)C6(C)C)C(C)(C)[C@@H]5CC[C@@]4(C)[C@]3(C)CC[C@@]2(CC(=O)NCc2ncccn2)CC1=O,p24 / ELISA,MT-2,92HT599,-,<1 µM
COCCCCOc1ccc(-c2cnc(C)c([C@H](OC(C)(C)C)C(=O)O)c2N2CCC(C)(C)CC2)nc1,luminescence,MT-2,NL4-3,-,0.0027 µM
O=C(COc1ccc(Cl)cc1C(=O)c1ccco1)Nc1ccc2cn[nH]c2c1,β-galactosidase,HeLa + HELA CD4+,HXB2 (RT-K103N Y181C) Recombinant,RT-K103N Y181C,0.101–1 µM
CC(C)C1=C2[C@H]3CC[C@@H]4[C@@]5(C)CC[C@H](OC(=O)[C@H]6C[C@@H](C(=O)O)C6(C)C)C(C)(C)[C@@H]5CC[C@@]4(C)[C@]3(C)CC[C@@]2(CCNC(F)(F)c2ccccc2)CC1=O,p24 / ELISA,MT-2,92HT599,-,<1 µM
C[C@@H]1CCO[C@H]2Cn3cc(C(=O)NCc4ccc(F)cc4F)c(=O)c(O)c3C(=O)N12,luminescence,H9,IIIB,-,0.00051 µM
Cc1ncc(-c2ccc(OCC3CC(C)(C)C3)cn2)c(N2CCC(C)(C)CC2)c1[C@H](OC(C)(C)C)C(=O)O,luminescence,MT-2,NL4-3,-,0.0016 µM
Cc1nc2ccccc2c(-c2cc(F)c3c(c2C)CCCO3)c1[C@H](OC(C)(C)C)C(=O)O,luminescence,MT-4,NL4-3,L74I/T124A/G140S/Q148H,0.018 µM
Cc1cc2cn[nH]c2cc1NC(=O)COc1ccc(Cl)cc1C(=O)c1cccc(C#N)c1,β-galactosidase,HeLa + HELA CD4+,HXB2,RT-K103N P225H,<0.01 µM
CC(C)C1=C2[C@H]3CC[C@@H]4[C@@]5(C)CC[C@H](OC(=O)[C@H]6C[C@@H](C(=O)O)C6(C)C)C(C)(C)[C@@H]5CC[C@@]4(C)[C@]3(C)CC[C@@]2([C@@H](O)CNC(=O)C(C)(C)N)CC1=O,p24 / ELISA,MT-2,92HT599,-,<1 µM
COc1ccc(OCCOc2ccc(-c3cnc(C)c([C@H](OC(C)(C)C)C(=O)O)c3N3CCC(C)(C)CC3)nc2)cc1,luminescence,MT-2,NL4-3,-,0.0007 µM
Cc1cc(S(N)(=O)=O)ccc1NC(=O)COc1ccc(Cl)cc1C(=O)c1cc(Cl)cc(C#N)c1,β-galactosidase,HeLa + HELA CD4+,HXB2,RT-V108I,<0.01 µM
Cc1ncc(-c2ccc(OCc3cccnc3)cn2)c(N2CCC(C)(C)CC2)c1[C@H](OC(C)(C)C)C(=O)O,luminescence,MT-2,NL4-3,-,0.0047 µM
CC(C)C1=C2[C@H]3CC[C@@H]4[C@@]5(C)CC[C@H](OC(=O)[C@H]6C[C@@H](C(=O)O)C6(C)C)C(C)(C)[C@@H]5CC[C@@]4(C)[C@]3(C)CC[C@@]2(CCNC(=O)c2ccc(S(C)(=O)=O)cc2)CC1=O,p24 / ELISA,MT-2,92HT599,-,<1 µM
Cc1ncc(-c2ccc(OCCOc3ccc(Cl)cc3)nc2)c(N2CCC(C)(C)CC2)c1[C@H](OC(C)(C)C)C(=O)O,luminescence,MT-2,NL4-3,-,0.0049 µM
Cc1cc(S(N)(=O)=O)ccc1NC(=O)COc1ccc(Cl)cc1C(=O)c1cc(F)cc(C(F)(F)F)c1,β-galactosidase,HeLa + HELA CD4+,HXB2,RT-K101E,<0.01 µM
CN1c2ccccc2C2C1C=C(C#N)C(=O)N2c1ccc([N+](=O)[O-])cc1,GFP / fluorescence,HeLa,C-98INN022,-,0.07 µM
CCc1ncc(-c2ccc(OCCOc3ccccc3)cn2)c(N2CCC(C)(C)CC2)c1[C@H](OC(C)(C)C)C(=O)O,luminescence,MT-2,NL4-3,-,0.0032 µM
CC(C)C1=C2[C@H]3CC[C@@H]4[C@@]5(C)CC[C@H](OC(=O)[C@H]6C[C@@H](C(=O)O)C6(C)C)C(C)(C)[C@@H]5CC[C@@]4(C)[C@]3(C)CC[C@@]2(CC(=O)NCC(F)(CCCN)NC(=O)c2ccc(Cl)cc2)CC1=O,p24 / ELISA,MT-2,92HT599,-,<1 µM
Cc1cc(Cl)cc(C(=O)c2cc(Cl)ccc2OCC(=O)Nc2ccc(S(N)(=O)=O)cc2C)c1,cytopathic effect / propidium iodide,MT-4,Nevirapine-resistant (RT Y181C),RT-Y181C,<0.01 µM
CCC(=O)c1ccc(F)c([C@@H]2C[C@@H]2NC(=O)Nc2ccc(C#N)cn2)c1O,β-galactosidase / luminescence,TZM-bl,LAI,NNRTI-resistant (RT Y188C),0.00021 µM
Cc1cc(S(N)(=O)=O)ccc1NC(=O)COc1ccc(Cl)cc1C(=O)c1cccc(C#N)n1,β-galactosidase,HeLa + HELA CD4+,HXB2,RT-P236L,<0.01 µM
Cc1ncc(-c2ccc(OCc3ccncc3)cn2)c(N2CCC(C)(C)CC2)c1[C@H](OC(C)(C)C)C(=O)O,luminescence,MT-2,NL4-3,-,0.0075 µM
CC(=O)c1c(C)nc(-c2ccccc2)nc1NC(=O)c1ccccc1,GFP / fluorescence,HeLa,4755-5,-,0.05 µM

For reference, 4 entries again:

structure,method,cells,strain,mutations,value
CC(C)C1=C2[C@H]3CC[C@@H]4[C@@]5(C)CC[C@H](OC(=O)[C@H]6C[C@@H](C(=O)O)C6(C)C)C(C)(C)[C@@H]5CC[C@@]4(C)[C@]3(C)CC[C@@]2(CC(=O)NCCc2ccc(Cl)cc2)CC1=O,p24 / ELISA,MT-2,92HT599,-,<1 µM
CC(C)C1=C2[C@H]3CC[C@@H]4[C@@]5(C)CC[C@H](OC(=O)[C@H]6C[C@@H](C(=O)O)C6(C)C)C(C)(C)[C@@H]5CC[C@@]4(C)[C@]3(C)CC[C@@]2(CC(=O)NCc2ncccn2)CC1=O,p24 / ELISA,MT-2,92HT599,-,<1 µM
Cc1cc(S(N)(=O)=O)ccc1NC(=O)COc1ccc(Cl)cc1C(=O)c1cc(F)cc(C(F)(F)F)c1,β-galactosidase,HeLa + HELA CD4+,HXB2,RT-K101E,<0.01 µM
Cc1cc(C#N)cc(C(=O)c2cc(Cl)ccc2OCC(=O)Nc2ccc(S(N)(=O)=O)cc2C)c1,β-galactosidase,HeLa + HELA CD4+,HXB2 (RT-K103N G190A) Recombinant,RT-K103N G190A,<0.01 µM